test: general procedure: Fmoc solid-phase peptide synthesis; Rink amide MBHA resin (0.35 mmol/g); DIC/HOBt; settings: whole synthesis, scale of the general procedure 2.85 g resin

Substance	final purity (method not given)
HAibQGT FTSD K (2xOEG-γE-COC18H36COOH) SKYL D SQAAQDFVQWLLAGGPSSGAPPPS-NH2	97.1%
HAibQGT FTSD K (2xOEG-γE-COC18H36COOH) SKAibL D SQAAQDFVQWLLAGGPSSGAPPPS-NH2	95.3%
HAibQGT FTSDY SKAib K (2xOEG-γE-COC18H36COOH) D SQAAQDFVQWLLAGGPSSGAPPPS-NH2	96.0%
